Anti-infective test results gathered from many reports (values: NIAID ChemDB through PubChem).

Shared fields: growth or infection tests; species: Mycobacterium tuberculosis

ECn: concentration that inhibits the pathogen or its effect by n%. An empty or dashed field is not shown. Percent inhibition refers to the dose given; in toxicity tests it is the harm to the cells. MIC50, MIC90 and the like: level of inhibition, or share of isolates inhibited. Conditions beyond the fields shown may differ between rows. MIC bound comes from a single tested concentration.

| smiles | strain | method | endpoint | tested at | result |
|---|---|---|---|---|---|
| CC[C@H]1OC(=O)[C@H](C)[C@@H](O[C@H]2C[C@@](C)(OC)[C@@H](O)[C@H](C)O2)[C@H](C)[C@@H](O[C@@H]2O[C@H](C)C[C@H](N(C)C)[C@H]2O)[C@](C)(O)C[C@@H](C)C(=O)[C@H](C)[C@@H](O)[C@]1(C)O | Drug-resistant |  | MIC50 |  | >8 µg/mL |
| CN(C)c1ccc(/C=C/C(=O)c2ccc(Cl)cc2)cc1 | H37Rv |  | MIC |  | >100 µg/mL |
| Cc1ccc(NC(=O)COc2ccc(Cl)cc2)cc1Cl | H37Rv | BACTEC | inhibition | 12.5 µg/mL | 0% |
| Cl.Oc1ccc(Nc2ccnc3cc(Cl)ccc23)cc1CN1CCCCC1 | H37Rv |  | MIC |  | >100 µg/mL |
| C1=C(CCNCCNCCCCc2ccccc2)CCCC1 |  |  | MIC |  | 12.5 µM |
| CC1(C)c2ccccc2-c2nc3ccccc3c3c2C1OC3=O | H37Rv | BACTEC | MIC bound |  | >12.5 µg/mL |
| C[C@@H]1CN(c2c(F)c(N)c3c(=O)c(C(=O)O)cn(C4CC4)c3c2F)C[C@H](C)N1 | H37Rv |  | MBC |  | 0.6 µg/mL |
| CC(=O)Nc1cc(Cl)c([N+](=O)[O-])c2cccnc12 | H37Rv |  | MIC |  | >100 µg/mL |
| CO[C@H]1/C=C/O[C@@]2(C)Oc3c(C)c(O)c4c(=O)c(c5oc6cc(N7CCN(C(C)C)CC7)cc(=O)c6nc5c4c3=C2O)NC(=O)/C(C)=C\C=C\[C@H](C)[C@H](O)[C@@H](C)[C@@H](O)[C@@H](C)[C@H](OC(C)=O)[C@@H]1C | 2219 (rifampin-resistant) |  | MBC |  | 0.8 µg/mL |
| O=c1[nH]cnc2ncnn12 | H37Rv | resazurin | inhibition | 6.25 µg/mL | -3% |
| OCc1ccc(Br)cc1 | H37Rv |  | MIC |  | 100 µg/mL |
| Fc1ccccc1CCNCCNC12CC3CC(CC(C3)C1)C2 |  |  | MIC |  | 50 µM |
| O=C1CC(c2ccccc2)Oc2ccc(I)cc21 | H37Rv |  | EC50 |  | >12.5 µg/mL |
| CCN1C[C@]2(COC)[C@H](O)CC(OC)[C@]34C1[C@H](CC23OC)[C@]1(OC(C)=O)[C@H]2[C@@H](OC(=O)c3ccccc3)[C@](O)(C[C@H]24)[C@@H](OC)[C@@H]1O | H37Rv | BACTEC | MIC |  | ≥12.8 µg/mL |
| CCCCC(CC)CN1CN(CC(CC)CCCC)CC(C)(NCCNCCC)C1 |  |  | MIC |  | 6.25 µM |
| Nc1ccc(I)cc1I | H37Rv |  | MIC |  | 25 µg/mL |
| CC1CN(C(=N)C#N)C(C)CN1C(=N)C#N | H37Rv | BACTEC | inhibition | 12.5 µg/mL | 1% |
| O=S(=O)(CCl)c1ccccc1 | H37Rv |  | MIC |  | 100 µg/mL |
| Cn1c(=O)c2[nH]c(=O)c(=O)[nH]c2n(C)c1=O | H37Rv | BACTEC | inhibition | 12.5 µg/mL | 7% |
| Oc1ccc(O)c(Cl)c1 | H37Rv |  | MIC |  | >100 µg/mL |
| c1ccc(NCCNCCNC2CCCCCCC2)cc1 |  |  | MIC |  | 50 µM |
| CN(C)/N=N/c1[nH]cnc1C(N)=O.[Cl][Cu][Cl] | H37Rv | BACTEC | inhibition | 12.5 µg/mL | 99% |
| C(CNCC12CC3CC(CC(C3)C1)C2)NCC12CC3CC(CC(C3)C1)C2 |  |  | MIC |  | 9.4 µM |
| O=C(O)Cn1cc(I)c(=O)c(I)c1 | H37Rv | resazurin | inhibition | 6.25 µg/mL | 46% |
| CO[C@H]1/C=C/O[C@@]2(C)Oc3c(C)c(O)c4c(=O)c(c5oc6cc(N7CCN(CC(C)C)CC7)cc(=O)c6nc5c4c3=C2O)NC(=O)/C(C)=C\C=C\[C@H](C)[C@H](O)[C@@H](C)[C@@H](O)[C@@H](C)[C@H](OC(C)=O)[C@@H]1C | 2219 (rifampin-resistant) |  | MIC |  | 0.1 µg/mL |
| CC1(C)NC(=O)C(C)(C)NC1=O | H37Rv | BACTEC | MIC bound |  | >12.5 µg/mL |
| Clc1ccccc1CCNCCNCCCCc1ccccc1 |  |  | MIC |  | 25 µM |
| O=C1CC(c2cccc(Cl)c2)Oc2ccccc21 | H37Rv |  | inhibition | 12.5 µg/mL | 0% |
| CC(=O)OC1c2c(ccc3ccccc23)CCC1CN(C)C.Cl | H37Rv |  | MIC |  | >100 µg/mL |
| C[C@H]1COc2c(N3CCN(C)CC3)c(F)cc3c(=O)c(C(=O)O)cn1c23 | ATCC 35826 |  | MBC |  | 0.5 µg/mL |
| CCn1c2cc(C)c(C)cc2nc2cc3c(cc21)c(Cl)c(=O)c1ccccc13 | H37Rv | BACTEC | MIC bound |  | ≤12.5 µg/mL |
| O=S(c1ccc(Cl)cc1)c1ccc(Cl)cc1 | H37Rv |  | MIC |  | 25 µg/mL |
| CC(NCCN[C@@H](C)C1CCCCC1)C12CC3CC(CC(C3)C1)C2 |  |  | MIC |  | 50 µM |
| CC(C)N=c1cc2n(-c3ccc(Cl)cc3)c3ccccc3nc-2cc1Nc1ccc(Cl)cc1 | MDR11 | broth dilution / resazurin | MIC |  | 1 µg/mL |
| O=C([O-])C[S][Bi]([S]CC(=O)[O-])[S]CC(=O)[O-].[Na+].[Na+].[Na+] | H37Rv |  | MIC |  | >100 µg/mL |
| COC(=O)C(=O)C(C(=O)C=C(C)C)c1nc2n(c1O)C(=N)N=N2 | H37Rv | resazurin | MIC bound |  | >6.25 µg/mL |
| O=C(/C=C/c1cccc(Cl)c1)c1ccccc1O |  |  | EC50 |  | <12.5 µg/mL |
| FC(F)(F)c1nc2nc(Cl)c(Cl)nc2s1 | H37Rv | resazurin | inhibition | 6.25 µg/mL | 6% |
| Nc1ccccc1I | H37Rv |  | MIC |  | >100 µg/mL |
| Fc1cccc(CCNCCNC23CC4CC(CC(C4)C2)C3)c1 |  |  | MIC |  | 50 µM |
| COc1ccc2c(=O)c(-c3c(-c4ccccc4)oc4cc(OC)ccc4c3=O)c(-c3ccccc3)oc2c1 |  |  | EC50 |  | >12.5 µg/mL |
| CC(C)CCCC(C)C1CCC2C3CC=C4CC(C(=O)O)CCC4(C)C3CCC12C | H37Rv |  | MIC |  | 50 µg/mL |
| CCCCCCCCCCCNCCNCc1ccccc1F |  |  | MIC |  | 25 µM |
| CC(CNCCC(c1ccccc1)c1ccccc1)NCC12CC3CC(CC(C3)C1)C2 |  |  | MIC |  | 6.25 µM |
| COc1cc(OC)c2c(c1)OC(c1ccc(O)cc1)CC2=O |  |  | inhibition | 12.5 µg/mL | 0% |
| CC1=NN(c2ccccc2)C(=O)C1N=Nc1cc(Cl)cc(S(=O)(=O)O)c1O | H37Rv | BACTEC | MIC |  | ≥12.5 µg/mL |
| Cc1cc(Nc2ccc(Cl)cc2S(=O)(=O)O)c2c3c1nc(=O)/c(=C(\O)c1ccccc1)c=3c1ccccc1c2=O.N | H37Rv |  | MIC |  | >100 µg/mL |
| CC1COc2c(N3CCN(C)CC3)c(F)cc3c(=O)c(C(=O)O)cn1c23 | ATCC 35823 |  | MBC |  | 1 µg/mL |
| NC(=O)c1c([N+](=O)[O-])ncn1[C@@H]1O[C@H](CO)[C@@H](O)[C@H]1O | H37Rv | BACTEC | MIC bound |  | >12.5 µg/mL |
| CCC(C)(NC(N)=O)NC(N)=O | H37Rv |  | MIC |  | >100 µg/mL |
| CCCCCCCCCCCNCCN[C@@H]1C[C@@H]2C[C@H]([C@H]1C)C2(C)C |  |  | MIC |  | 25 µM |
| CCC(CCOC(=O)c1ccc([N+](=O)[O-])cc1)N1CCCCC1.Cl | H37Rv |  | MIC |  | >100 µg/mL |
| CCCCN(CCCC)c1cc(=O)nc2ccccn12 | H37Rv | resazurin | MIC bound |  | >6.25 µg/mL |
| O=C(O)COc1ccc(N=Nc2ccccc2)cc1 | H37Rv |  | MIC |  | >100 µg/mL |
| O=C1N(C2CCCCC2)CC2C(c3cccnc3)NNC12O | H37Rv | BACTEC | inhibition | 12.8 µg/mL | 23% |
| Cc1c(Cl)cc(NC(=O)c2cccc(NS(=O)(=O)c3cccc(N)c3)c2)c(O)c1Cl | H37Rv |  | MIC |  | >100 µg/mL |
| Cc1c2oc3c(C)ccc(C(=O)NC(C(N)=O)C(C)O)c3nc-2c(C(=O)NC(C(N)=O)C(C)O)c(N)c1=O | H37Rv | BACTEC | inhibition | 12.5 µg/mL | 0% |
| CC(=O)Oc1ccc(C2=CC(=O)C(c3ccc(OC(C)=O)cc3)=CC2=O)cc1 | H37Rv |  | MIC |  | >100 µg/mL |
| CCCCN(CCNC/C=C(\C)CCC=C(C)C)Cc1ccccc1 |  |  | MIC |  | 25 µM |
| CCOc1c(N=Nc2ccc(Cl)cc2Cl)c(C)nn1C(=S)S | H37Rv | BACTEC | inhibition | 12.5 µg/mL | 97% |
| O=C(/C=C/c1ccccc1)c1cccc2ccccc12 |  |  | EC50 |  | >12.5 µg/mL |
| CCCCCCCNCc1cc(Nc2ccnc3cc(Cl)ccc23)ccc1O.Cl | H37Rv |  | MIC |  | 100 µg/mL |
| c1ccc(C(CCNCCNC(c2ccccc2)c2ccccc2)c2ccccc2)cc1 |  |  | MIC |  | 25 µM |
| NS(=O)(=O)c1ccc(NC(=O)C(=O)C(O)C(O)C(O)CO)cc1 | H37Rv | resazurin | inhibition | 6.25 µg/mL | 1% |
| COc1ccccc1CCNCCNCCc1ccc(OC)c(OC)c1 |  |  | MIC |  | 50 µM |
| O=C(O)c1cc(Cl)ccc1O | H37Rv |  | MIC |  | >100 µg/mL |
| Cc1nc2c(=O)n(C)c(=O)n(C)c2nc1CCC(=O)O | H37Rv | BACTEC | inhibition | 12.5 µg/mL | -29% |
| C[C@@H]1[C@@H](NCCNC(c2ccccc2)c2ccccc2)C[C@H]2C[C@@H]1C2(C)C |  |  | MIC |  | 50 µM |

The last 5 rows once more:

smiles	strain	method	endpoint	tested at	result
NS(=O)(=O)c1ccc(NC(=O)C(=O)C(O)C(O)C(O)CO)cc1	H37Rv	resazurin	inhibition	6.25 µg/mL	1%
COc1ccccc1CCNCCNCCc1ccc(OC)c(OC)c1			MIC		50 µM
O=C(O)c1cc(Cl)ccc1O	H37Rv		MIC		>100 µg/mL
Cc1nc2c(=O)n(C)c(=O)n(C)c2nc1CCC(=O)O	H37Rv	BACTEC	inhibition	12.5 µg/mL	-29%
C[C@@H]1[C@@H](NCCNC(c2ccccc2)c2ccccc2)C[C@H]2C[C@@H]1C2(C)C			MIC		50 µM